{"source": "the DeepSol protein solubility set", "assay": "soluble on expression in E. coli; label from the status in PepcDB or PDB records"}
{"sequence": "MSKTASSRNSLSAQLRRAANTRIEVEGNLALSIANDLLLAYGQSPFNSEAECISFSPRFDGTPDDFRINYLKAEIMSKYDDFSLGIDTEAVAWEKFLAAEAECALTNARLYRPDYSEDFNFSLGESCIHMARRKIAKLIGDVPSVEGMLRHCRFSGGATTTNNRSYGHPSFKFALPQACTPRALKYVLALRASTHFDTRISDISPFNKAVTVPKNSKTDRCIAIEPGWNMFFQLGIGGILRDRLRCWGIDLNDQTINQRRAHEGSVTNNLATVDLSAASDSISLALCELLLPPGWFEVLMDLRSPKGRLPDGSVVTYEKISSMGNGYTFELESLIFASLARSVCEILDLDSSEVTVYGDDIILPSCAVPALREVFKYVGFTTNTKKTFSEGPFRESCGKHYYSGVDVTPFYIRHRIVSPADLILVLNNLYRWATIDGVWDPRAHSVYLKYRKLLPKQLQRNTIPDGYGDGALVGSVLINPFAKNRGWIRYVPVITDHTRDRERAELGSYLYDLFSRCLSESNDGLPLRGPSGCDSADLFAIDQLICRSNPTKISRSTGKFDIQYIACSSRVLAPYGVFQGTKVASLHEA", "values": [{"measurement": "soluble on expression in E. coli", "result": "soluble"}]}
